We go through 1 sequence from publication PMC3764172.

This data set concerns the target T1, PGN_0753 (HaeR) response regulator, His6-tagged (Porphyromonas gingivalis ATCC 33277) (UniProt B2RIS7).
T1 sequence (looked up): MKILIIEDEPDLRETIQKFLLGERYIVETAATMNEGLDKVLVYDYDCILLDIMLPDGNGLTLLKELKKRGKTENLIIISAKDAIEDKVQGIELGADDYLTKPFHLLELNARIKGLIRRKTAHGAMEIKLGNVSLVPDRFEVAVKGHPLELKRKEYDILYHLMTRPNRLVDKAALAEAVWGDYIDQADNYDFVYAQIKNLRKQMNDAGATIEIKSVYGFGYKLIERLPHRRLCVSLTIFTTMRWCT
Nature of the data set: EMSA. Conditions: 1 mM acetyl phosphate; recombinant protein; residues 1-245; protein details: C-terminal His6 (pET-22b+); label: DIG; probe letters rebuilt from the primers and the genome. (In general: In EMSA bound probe runs differently from free probe, usually more slowly.)

Protein sequences can lack the tags named with them.

With “TAGATGATTTTCCTTGTCATGCCATAGCTTTATGTCATTGATTATACCTAAATACACGAAATAATCGGCTGACACACAATATAATGAATGAATAAAAGCACCTGTTTATTGAGCAAAGGTCTCTATAAGAAAACAAAAGCTATATAGCTTTCGGTCGATTCCTATATAGGATTGAGCTGATTACTATATAGCTTTCGTTTGATTGCTATATAGGATTGGGCCGATTGCTATATAGCTTTGTTTACACTCCTATATAGTCATCCCCTAAAAAGTCCCTTTCAGGGAGATATTGTCAGCAAACAGTATCTCGCAGA (double strand) [hmuY (PGN_0558) promoter]”, the binding result is “binds”.
